Measurements as given in PMC6017328, “Tetrasubstituted Imidazolium Salts as Potent Antiparasitic Agents against African and American Trypanosomiases” (Molecules : A Journal of Synthetic Chemistry and Natural …, 2018).

Legend:
[1] = tested on: Bloodstream form T. brucei (strain 221); assay: T. brucei culturing and evaluation of trypanocidal activity (resazurin); format: cell-based, Trypanosoma brucei; conditions: selectivity index; ratio of mammalian cell (L6) and parasite EC50 values
Method: Bloodstream form T. brucei (strain 221) were grown as described previously. […] Logarithmically growing T. brucei were diluted to 2.5 × 10^4 mL^−1 and aliquoted into 96-well plates. Then, compounds were added at a range of concentrations and the plates incubated at 37 °C. Each compound was tested in triplicate. Resazurin was added after 48 h and the plates incubated for a further 16 h. The plates were then read in a Spectramax plate reader. Results were analyzed using GraphPad Prism.

[2] = tested on: T. cruzi epimastigotes (CL Brener stain); assay: T. cruzi culturing and evaluation of trypanocidal activity (resazurin); format: cell-based, Trypanosoma cruzi; conditions: selectivity index; ratio of mammalian cell (L6) and parasite EC50 values

Cc1ccc(-n2c[n+](C(C)(C)C)c(Cc3ccccc3)c2-c2ccccc2)cc1 [Compound 1a]
SI (T. brucei) [1]: 188
SI (T. cruzi) [2]: 18

COc1ccc(-n2c[n+](-c3ccc(OC)cc3)c(Cc3ccccc3)c2-c2ccc(C)cc2)cc1 [Compound 1b]
SI (T. brucei) [1]: 118
SI (T. cruzi) [2]: 10

COc1ccc(-n2c[n+](C(C)(C)C)c(Cc3ccc(C)cc3)c2-c2ccc(Cl)cc2)cc1 [Compound 1c]
SI (T. brucei) [1]: 54
SI (T. cruzi) [2]: 5.6

Cc1ccc(-n2c[n+](-c3ccc4ccccc4c3)c(Cc3ccccc3)c2-c2ccc(Cl)cc2)cc1 [Compound 1d]
SI (T. brucei) [1]: 56
SI (T. cruzi) [2]: 7.6

Cc1ccc(-n2c[n+](CC(=O)[O-])c(Cc3ccccc3)c2-c2ccccc2)cc1 [Compound 1e]
SI (T. brucei) [1]: > 24
